Test [1] has as its system Plasmodium falciparum. Nature of the test: Antimalarial activity against chloroquine-sensitive Plasmodium falciparum 3D7 by [3H]hypoxanthine uptake.
The test system of test [2] is Plasmodium falciparum. Nature of the test: Antimalarial activity against chloroquine-resistant Plasmodium falciparum K1 by [3H]hypoxanthine uptake.

In general, IC50 refers to the concentration at which inhibition is half-maximal. A high value points to a need for much substance.

The molecule `C[C@H]1[C@@H](CCCOP(C)(=O)OCCC[C@H]2O[C@@H]3O[C@@]4(C)CC[C@H]5[C@H](C)CC[C@@H]([C@H]2C)[C@@]35OO4)O[C@@H]2O[C@@]3(C)CC[C@H]4[C@H](C)CC[C@@H]1[C@@]24OO3` showed a 50% inhibitory concentration (IC50) in test [1] of 0.5 nM.
With `C[C@H]1[C@@H](CCOP(C)(=O)OCC[C@H]2O[C@@H]3O[C@@]4(C)CC[C@H]5[C@H](C)CC[C@@H]([C@H]2C)[C@@]35OO4)O[C@@H]2O[C@@]3(C)CC[C@H]4[C@H](C)CC[C@@H]1[C@@]24OO3`, the IC50 in test [2] was determined as 0.04 nM.
With `C[C@H]1[C@@H](CCOP(C)(=O)OCC[C@H]2O[C@@H]3O[C@@]4(C)CC[C@H]5[C@H](C)CC[C@@H]([C@H]2C)[C@@]35O4)O[C@@H]2O[C@@]3(C)CC[C@H]4[C@H](C)CC[C@@H]1[C@@]24O3`, in test [2], the IC50 is more than 1000 nM.

Values taken from ChEMBL document CHEMBL1143376, “Synthesis and biological evaluation of extraordinarily potent C-10 carba artemisinin dimers against P. falciparum malaria parasites and HL-60 cancer cells” (Bioorg Med Chem, 2009).
